Anti-infective test results gathered from many reports (values: NIAID ChemDB through PubChem).

Common to all: whole-cell or culture tests; agent: Parainfluenza virus; measure: EC50

Blank or dashed fields: not listed here.

structure | cells | strain or isolate | read by | result
CC1(CO)CCC(Cn2nnc3c(Cl)nc(N)nc32)C1(C)C | VERO | TYPE 3 | cytopathic effect | >100 µg/mL
Nc1ncnc2c1ncn2[C@H]1C[C@@H](O)[C@H](O)[C@@H]1O | VERO | TYPE 3 | - | 0.2 µg/mL
CCOC(=O)C1=CN(COCCOC(C)=O)S(=O)(=O)N=C1N | VERO | TYPE 3 | - | >400 µg/mL
CC=NC(=N)c1nc(-c2ccc(C)cc2)n(C/C=C/c2ccccc2)n1 | VERO | TYPE 3 | cytopathic effect | >10 µg/mL
Cc1cn([C@H]2O[C@H](CO)[C@@H](N=[N+]=[N-])[C@H]2F)c(=O)nc1N | VERO B | TYPE 3 | cytopathic effect | >400 µg/mL
CCC(Sc1ncnc2c1cnn2CCCCO)C(N)=O | VERO | TYPE 3 | cytopathic effect | >400 µg/mL
COC(=O)[C@]1(C)CCC[C@]2(C)c3ccc4nc(-c5ccccc5)c(-c5ccccc5)nc4c3CCC12 | VERO | TYPE 3 | plaque count | >4 µg/mL
Nc1nc2c(ncn2[C@@H]2C=C(CCO)[C@@H](O)[C@H]2O)c(=O)[nH]1 | VERO | TYPE 3 | plaque count | >25 µg/mL
NC(=O)CSc1ncnc2c1cnn2CCCCO | VERO | TYPE 3 | cytopathic effect | >400 µg/mL
COC(=O)[C@]1(C)CCC[C@]2(C)c3cc(Br)c4nc(C)[nH]c4c3CCC12 | VERO | TYPE 3 | plaque count | >4 µg/mL
CSc1ncnc2c1cnn2Cc1cn(CCCCO)nn1 | VERO | TYPE 3 | - | 240 µg/mL
Cc1cn([C@@H]2C=C(CCO)[C@@H](O)[C@H]2O)c(=O)[nH]c1=O | VERO | TYPE 3 | plaque count | >25 µg/mL
CC1(CO)CCC(Cn2nnc3c(N)nc(N)nc32)C1(C)C | VERO | TYPE 3 | cytopathic effect | >200 µg/mL
CC(=O)OCCOCN1C=CC(=O)N(COCCOC(C)=O)S1(=O)=O | VERO | TYPE 3 | - | >400 µg/mL
CC1(CO)CCC(Cn2cnc3c(=O)[nH]c(N)nc32)C1(C)C | VERO | TYPE 3 | cytopathic effect | >400 µg/mL
C[C@H]1O[C@@H](c2n[nH]c(C(N)=O)c2O)[C@H](O)[C@@H]1O | VERO | TYPE 3 | cytopathic effect | >200 µg/mL
CC=NC(=N)c1nc(-c2cccc(C)c2)n(Cc2ccccc2)n1 | VERO | TYPE 3 | cytopathic effect | >10 µg/mL
Nc1ncnc2c1ncn2[C@@H]1C[C@H](COP(=O)(O)O)[C@@H](O)[C@H]1O | VERO | TYPE 1 | cytopathic effect | >200 µg/mL
CC1(C)[C@@H](CO)CC[C@@]1(C)Cn1cnc2c(N)ncnc21 | VERO | TYPE 3 | cytopathic effect | >400 µg/mL
C=C(N=CC)c1nc(-c2ccccc2)n([C@@H]2O[C@H](CO)[C@@H](O)[C@H]2O)n1 | VERO | TYPE 3 | cytopathic effect | >100 µg/mL
Nc1ccn([C@@H]2O[C@H](CO)[C@@H](O)[C@@H]2O)c(=O)n1 | VERO | C243 (TYPE 3) | cytopathic effect | >500 µM
CC1(C)[C@@H](CCO)C[C@H]1n1cnc2c(N)ncnc21 | VERO | TYPE 3 | cytopathic effect | >400 µg/mL
Nc1nc(=O)n([C@@H]2O[C@H](COP(=O)([O-])[O-])[C@@H](O)[C@H]2O)cc1F | VERO | C243 (TYPE 3) | cytopathic effect | 20 µM
Nc1ncnc2c1ncn2C1CC(CO)[C@@H](O)[C@H]1O | VERO | TYPE 1 | cytopathic effect | 3 µg/mL
CCC(Sc1ncnc2c1cnn2COCC(O)CO)C(N)=O | VERO | TYPE 3 | cytopathic effect | >400 µg/mL
OCCCCn1cc(Cn2ncc3c(SCc4ccccc4)ncnc32)nn1 | VERO | TYPE 3 | - | >400 µg/mL
[N-]=[N+]=N[C@H]1[C@@H](F)[C@H](n2cnc3c(N)ncnc32)O[C@@H]1CO | VERO B | TYPE 3 | cytopathic effect | >200 µg/mL
OCCCCn1nncc1Cn1ncc2c(SCc3ccccc3)ncnc21 | VERO | TYPE 3 | - | >400 µg/mL
CC(C)CS[C@@H]1C=C[C@H](n2cnc3c(N)ncnc32)C1 | HeLa | TYPE 3 | cytopathic effect | >3.2 µg/mL
C=C(N=CC)c1nc(-c2ccc(C)cc2)n(C2O[C@H](CO)[C@@H](O)[C@H](O)[C@H]2O)n1 | VERO | TYPE 3 | cytopathic effect | >100 µg/mL
O=C1C=CN(COCCO)S(=O)(=O)N1COCCO | VERO | TYPE 3 | - | >400 µg/mL
[N-]=[N+]=NC(CBr)c1cc([C@H]2C[C@H](O)[C@@H](CO)O2)c(F)cc1F | VERO | TYPE 3 | cytopathic effect | >16 µg/mL
CC(=O)OCCOCN1C(=O)C=CN(COCCO)S1(=O)=O | VERO | TYPE 3 | - | >400 µg/mL
CC1(C)[C@@H](CCO)C[C@H]1n1nnc2c(N)nc(N)nc21 | VERO | TYPE 3 | cytopathic effect | 300 µg/mL
CC(=O)OCCOCN1C=CC(=O)N(COCCO)S1(=O)=O | VERO | TYPE 3 | - | >400 µg/mL
CC1(C)[C@@H](CO)CC[C@@]1(C)Cn1ccc(=O)[nH]c1=O | VERO | TYPE 3 | cytopathic effect | >400 µg/mL
CC1(C)[C@@H](CCO)C[C@H]1n1cnc2c(=O)[nH]c(N)nc21 | VERO | TYPE 3 | cytopathic effect | >400 µg/mL
COC(=O)[C@]1(C)CCC[C@]2(C)c3ccc4[nH]cnc4c3CCC12 | VERO | TYPE 3 | plaque count | >4 µg/mL
Cc1cn([C@H]2C/C(=N\O)[C@@H](CO)O2)c(=O)[nH]c1=O | VERO | - | cytopathic effect | >200 µg/mL
COC(=O)Nc1nc2c3c(ccc2[nH]1)[C@@]1(C)CCC[C@@](C)(C(=O)OC)C1CC3 | VERO | TYPE 3 | plaque count | >4 µg/mL
Nc1ncnc2c1ncn2[C@@H]1C=C(CO)[C@@H](O)[C@H]1O | VERO | TYPE 3 | cytopathic effect | 2 µg/mL
CC1(C)[C@@H](CO)CC[C@@]1(C)Cn1cnc2c(=O)[nH]cnc21 | VERO | TYPE 3 | cytopathic effect | >400 µg/mL

The first 4 rows once more:

structure | cells | strain or isolate | read by | result
CC1(CO)CCC(Cn2nnc3c(Cl)nc(N)nc32)C1(C)C | VERO | TYPE 3 | cytopathic effect | >100 µg/mL
Nc1ncnc2c1ncn2[C@H]1C[C@@H](O)[C@H](O)[C@@H]1O | VERO | TYPE 3 | - | 0.2 µg/mL
CCOC(=O)C1=CN(COCCOC(C)=O)S(=O)(=O)N=C1N | VERO | TYPE 3 | - | >400 µg/mL
CC=NC(=N)c1nc(-c2ccc(C)cc2)n(C/C=C/c2ccccc2)n1 | VERO | TYPE 3 | cytopathic effect | >10 µg/mL

Lines come from different laboratories, so protocols vary. ECn is the concentration giving n% inhibition of infection, replication or growth.